According to patent US20200170258A1:

T1: EF-Tu Receptor (EFR) of Arabidopsis thaliana (Arabidopsis thaliana), C0LGT6
T1 chain: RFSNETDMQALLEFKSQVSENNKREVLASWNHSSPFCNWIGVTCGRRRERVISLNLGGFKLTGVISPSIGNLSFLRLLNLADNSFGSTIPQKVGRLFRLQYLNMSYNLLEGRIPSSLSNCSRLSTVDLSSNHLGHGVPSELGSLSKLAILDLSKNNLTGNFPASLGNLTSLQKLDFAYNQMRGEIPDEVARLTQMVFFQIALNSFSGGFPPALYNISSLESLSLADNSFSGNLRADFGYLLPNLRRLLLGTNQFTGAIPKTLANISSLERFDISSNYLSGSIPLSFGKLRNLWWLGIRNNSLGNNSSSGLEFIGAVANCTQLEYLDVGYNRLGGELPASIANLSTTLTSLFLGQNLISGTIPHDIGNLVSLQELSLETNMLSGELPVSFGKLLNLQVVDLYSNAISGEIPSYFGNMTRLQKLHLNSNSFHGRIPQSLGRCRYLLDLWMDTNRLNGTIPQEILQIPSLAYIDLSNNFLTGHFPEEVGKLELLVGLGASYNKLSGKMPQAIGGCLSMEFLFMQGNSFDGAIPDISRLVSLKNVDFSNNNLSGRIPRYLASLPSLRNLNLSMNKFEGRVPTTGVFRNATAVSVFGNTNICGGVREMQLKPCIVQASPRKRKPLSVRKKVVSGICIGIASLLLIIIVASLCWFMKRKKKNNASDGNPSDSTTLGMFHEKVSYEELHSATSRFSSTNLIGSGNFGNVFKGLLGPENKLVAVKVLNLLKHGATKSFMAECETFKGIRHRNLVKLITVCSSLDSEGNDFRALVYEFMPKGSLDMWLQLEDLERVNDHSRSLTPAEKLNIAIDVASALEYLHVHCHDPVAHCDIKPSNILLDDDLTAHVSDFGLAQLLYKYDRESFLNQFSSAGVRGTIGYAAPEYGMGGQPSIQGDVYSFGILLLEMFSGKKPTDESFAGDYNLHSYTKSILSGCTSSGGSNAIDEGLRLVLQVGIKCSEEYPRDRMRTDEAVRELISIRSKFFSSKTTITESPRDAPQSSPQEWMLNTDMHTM


Biological target: T1, EF-Tu Receptor (EFR) of Arabidopsis …
Test: cell-based or functional assay

Binder | ROS activity in Arabidopsis leaf tissue, Average RLU value, 100 nM | ROS activity in Arabidopsis leaf tissue, fold increase over mock treatment, 100 nM
AKAKFERSKPHVNIGTIG (modifications not checked) [N terminus of EF Tu (modified), Bacillus cereus, 18 amino acids] | 264000 RLU | 3.2 fold
AKAKFERSKPHVNIGTIGHVDHGKTT (modifications not checked) [N terminus of EF Tu (modified), Bacillus cereus, 26 amino acids] | 211000 RLU | 2.5 fold
